## Potato spindle tuber viroid, loop 27: variant abundance in plants

The pool varies loop 27 of the PSTVd intermediate strain in the pattern UNNNNA; wild type is UUUUCA (5' to 3', with the closing base pair).

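A pool of all variants was put on leaves of three Nicotiana benthamiana plants. Progeny were sequenced from the inoculated region (day 5), the margin of the inoculated leaf (day 10) and systemic leaves (day 12).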

Values are reads per thousand in the sample; higher means more abundant, 0 means not found. Each site shows the three plants. "Pool" is the share in the plasmid pool used as inoculum, on the same scale. The inoculated region was read from the minus strand, the other sites from the plus strand. IR is the inoculated region, LM the leaf margin, Sys the systemic leaves. For reference, wild type rose from 39.4 per thousand in the pool to 155, 124, 130 (inoculated region), 823, 907, 920 (leaf margin) and 805, 787, 933 (systemic leaves).

sequence | pool | IR | LM | Sys
AACUGA | 0.0272 | 0 0 0.0189 | 0 0 0 | 0 0 0
AAUUUA | 0.0136 | 0 0 0 | 0 0 0 | 0 0 0
AGAUAA | 0.0136 | 0 0 0 | 0 0 0 | 0 0 0
AUAUGA | 0.0136 | 0 0.0164 0 | 0 0 0 | 0 0 0
AUCUAC | 0.122 | 0 0.0164 0 | 0 0 0 | 0 0 0
GAUUGA | 0.0136 | 0 0 0 | 0 0 0 | 0 0 0
UAACUA | 3.87 | 1.92 2.05 1.63 | 0.0333 0.212 0.0775 | 0.0322 0.0306 0.0787
UAAUAA | 6.22 | 2.95 3.40 2.70 | 0.666 0.454 0.0775 | 0.0804 0.138 0.157
UACGAA | 0.828 | 0.229 0.245 0.0945 | 0 0.454 0 | 0 0.0153 0.0393
UACGUA | 2.62 | 0.741 0.769 0.832 | 0 0.121 0 | 0 0.0306 0
UACUAC | 0.0272 | 0 0 0 | 0 0 0 | 0 0 0
UACUUA | 2.19 | 1.22 1.47 0.832 | 0.0333 0.121 0 | 0 0 0
UAUGCA | 5.80 | 4.71 5.50 4.74 | 0.233 1.06 0.904 | 0.129 0.199 0.0787
UCAACA | 0.611 | 0.423 0.458 0.378 | 0.0333 0.0302 0 | 0 0 0
UCCAUA | 2.00 | 0.564 0.475 0.189 | 0 0.0302 0.155 | 0 0.0153 0
UCCCUA | 2.97 | 1.09 1.52 1.32 | 0.0666 0.605 0 | 0.0161 0.0153 0.0393
UCCGCA | 0.978 | 0.194 0.180 0.151 | 0 0.0302 0 | 0 0 0
UCCUUA | 3.52 | 1.50 1.75 1.57 | 0.0333 0.0605 0.0258 | 0.0322 0 0
UCGAGA | 4.21 | 2.49 3.47 2.70 | 0.100 0.212 0.310 | 0.0482 0 0.0590
UCGCUA | 1.29 | 0.511 0.818 0.454 | 0 0.0302 0.0775 | 0 0.0153 0
UCGGUA | 2.74 | 1.80 1.65 1.68 | 0.366 0.121 0.439 | 0.0161 0.0459 0
UCUCGA | 0.475 | 0.406 0.442 0.246 | 0 0.0302 0 | 0 0 0.0197
UCUGGA | 4.70 | 1.75 2.11 1.81 | 0.133 0.242 0.284 | 0.0482 0.0917 0.0393
UCUUGA | 4.74 | 5.38 5.92 6.41 | 0.666 0.302 0.103 | 0.0965 6.86 0.157
UCUUUA | 4.47 | 5.15 4.43 4.40 | 0.0333 0.363 0.0258 | 0.0482 0.0611 0.0393
UGAAUA | 6.14 | 10.6 9.00 9.89 | 1.60 0.454 0.594 | 0.0482 0.168 0.138
UGAUAA | 3.71 | 3.33 3.52 3.44 | 0.600 0.242 0.0517 | 0.0643 0.0764 0.0787
UGAUCA | 1.94 | 1.23 1.64 0.964 | 0.133 0.242 0.439 | 0.0322 0.0764 0.0787
UGCGAA | 1.75 | 1.69 1.69 1.47 | 0 0.0907 0 | 0.0161 0.0459 0.0197
UGCUAA | 3.14 | 1.87 1.93 2.29 | 0.0333 0.0605 0.0258 | 0.0161 0.0153 0.0197
UGUCGA | 2.78 | 3.83 3.11 4.01 | 0.500 0.242 0.336 | 0.0482 0 0.0984
UGUUAA | 6.13 | 6.74 6.42 7.58 | 0.833 0.635 0.439 | 0.113 0.382 0.531
UGUUUA | 6.68 | 15.9 16.9 16.9 | 4.20 0.454 0.620 | 0.273 0.245 0.452
UUAAAC | 0.340 | 0.0705 0.0327 0.113 | 0 0 0 | 0 0 0
UUAAGA | 1.92 | 1.09 1.01 0.983 | 0.400 0.212 0.207 | 0.0322 0.153 0.0197
UUAUCA | 2.49 | 4.92 5.79 6.39 | 2.40 1.78 0.698 | 0.772 0.948 0.787
UUCAUA | 2.92 | 2.01 1.70 1.30 | 0.0333 0.0605 0.233 | 0 0.0153 0.0197
UUCUAA | 3.75 | 2.89 3.47 2.61 | 0.0333 0.151 0.0517 | 0.0161 0.0459 0.0984
UUGCUA | 3.56 | 3.99 4.17 4.65 | 0.433 0.0907 0.103 | 0.0322 0.413 0.0393
UUGGCA | 3.90 | 2.10 2.52 1.81 | 0.500 0.423 0.439 | 0.0322 0.0764 0.0393
UUGUAA | 5.09 | 12.4 14.3 13.1 | 3.96 1.03 0.362 | 0.418 1.02 0.236
UUGUCA | 4.81 | 10.1 11.1 12.1 | 5.30 5.08 1.55 | 167 3.58 9.19
UUUACG | 0.0136 | 0 0 0 | 0.0333 0 0 | 0 0 0
UUUAGA | 5.23 | 4.22 4.91 4.91 | 0.566 0.514 0.439 | 0.0643 0.0764 10.9
UUUAUA | 4.25 | 7.04 6.91 8.51 | 0.800 0.272 0.0517 | 0.0804 0.183 0.0787
UUUCUA | 5.09 | 9.44 9.20 10.3 | 1.63 0.212 0.155 | 0.145 0.138 0.157
UUUUUA | 13.0 | 49.9 43.0 44.6 | 13.4 2.69 1.40 | 8.01 7.08 1.26

A selection of 2 entries from above:

| sequence | pool | IR | LM | Sys |
|---|---|---|---|---|
| UGUUUA | 6.68 | 15.9 16.9 16.9 | 4.20 0.454 0.620 | 0.273 0.245 0.452 |
| UCUCGA | 0.475 | 0.406 0.442 0.246 | 0 0.0302 0 | 0 0 0.0197 |

The authors trace changes outside the varied positions to PCR and sequencing errors or to mutation in the plant; presence does not show that a variant is infectious alone. With 30,013-65,426 reads a sample, very low values are single reads.

From the data files of Wu et al. 2024, doi:10.1371/journal.ppat.1012142.